Source: ChEMBL document CHEMBL4422700, “Trichothecenes from a Soil-Derived Trichoderma brevicompactum” (J Nat Prod, 2019)
Converted amounts (≈) assume the structure as drawn.

Columns and labels:
Type in all cases: functional
[1] = tested on: Cryptococcus neoformans; assay: Antifungal activity against flucytosine-resistant, Cryptococcus neoformans ATCC 90113 by colorimetric broth microdilution method
[2] = tested on: Candida albicans; assay: Antifungal activity against Candida albicans NCPF3153 by colorimetric broth microdilution method
[3] = tested on: Nannizzia gypsea; assay: Antifungal activity against Microsporum gypseum by colorimetric broth microdilution method

| SMILES | MIC [1] | MIC [2] | MIC [3] |
| --- | --- | --- | --- |
| CC1=C[C@H]2O[C@@H]3C[C@@H](O)[C@](C)([C@@]2(C)CC1)[C@]31CO1 [TRICHODERMOL] | 16 µg/mL (≈ 63.9 µM) | 16 µg/mL (≈ 63.9 µM) | – |
| CC(=O)O[C@@H]1C[C@H]2O[C@@H]3C=C(CO)CC[C@]3(C)[C@]1(C)[C@]21CO1 | 64 µg/mL (≈ 208 µM) | 64 µg/mL (≈ 208 µM) | – |
| CC(=O)O[C@@H]1C[C@H]2O[C@@H]3C=C(C)CC[C@]3(C)[C@]1(C)[C@]21CO1 | 4 µg/mL (≈ 13.7 µM) | 1 µg/mL (≈ 3.42 µM) | 2 µg/mL (≈ 6.84 µM) |
